A mixed list of measured activities; the numbers were collected in NIAID ChemDB.

Shared fields: target-level tests

Inhibition is in % at the dose shown (toxicity tests: loss of growth or viability). Two numbers with a dash give a range or band. Blank or dashed fields: not listed here. ICn: concentration for n% inhibition. Conditions beyond the fields shown may differ between rows. Fold resistance: result on the changed form divided by that on wild type.

smiles | method | target | organism | tested at | mutations | strain or isolate | measure | result
Nc1nc(N)c2c(F)cccc2n1 | - | DHFR | Pneumocystis carinii | - | - | - | IC50 | 0.41 µM
CC(C)C(=O)N[C@H]1C([C@H](C)[C@@H](O)CO)OC(C(=O)O)=C[C@@H]1N=[N+]=[N-] | - | Neuraminidase | Parainfluenza virus | - | - | TYPE 1 | IC50 | 0.04 µM
CC(C)(C)NC(=O)[C@@H]1CC(O)CN1C(=O)[C@@H](O)[C@H](Cc1ccccc1)NC(=O)[C@H](CS(C)(=O)=O)NC(=O)COc1cccc2ccccc12 | - | Protease | HIV-1 | 0.05 µM | - | - | inhibition | 68.4%
Nc1ncc(CNc2ccc(C(=O)N[C@@H](CCC(=O)O)C(=O)O)cc2)c(N)n1 | - | Dihydrofolate reductase | Cryptosporidium parvum | - | - | TYPE I | IC50 | 0.07 µM
O=C1O[C@H]2C(O)O[C@@H]3COC(=O)c4cc(O)c(O)c(O)c4-c4c(cc(c(O)c4O)Oc4c(cc(O)c(O)c4O)C(=O)O[C@@H]4[C@@H](OC(=O)c5cc(O)c(O)c(O)c5)[C@@H]5OC(=O)c6cc(O)c(O)c(O)c6-c6c(cc7c(c6O)OC6C(O7)C1=CC(=O)C6(O)O)C(=O)OC[C@H]5O[C@H]4O)C(=O)O[C@H]3[C@@H]2OC(=O)c1cc(O)c(O)c(O)c1 | - | DNA polymerase | Epstein-Barr virus | 7.5 µg/mL | - | - | inhibition | 54.3%
CCOC(OCC)C1=NO[C@H]2[C@H](O)C(O)O[C@@H]12 | - | Beta-galactosidase | Aspergillus niger | - | - | - | IC50 | >1000 µM
Clc1cc(CN2CCCNCCNCCCNCC2)cc(Cl)n1 | - | CXCR4 | - | - | CXCR4-D262N | - | fold resistance | 1.36
COc1cc(N2C(N)=NC(N)=NC2(C)C)cc(OC)c1OC | - | DHFR | Toxoplasma gondii | - | - | - | IC50 | 84 µM
CCc1c(Cl)nc(N)nc1Nc1ccc(Br)cc1 | - | Dihydrofolate reductase | Cryptosporidium parvum | - | - | TYPE II | IC50 | >10 µM
CC1(C)N=C(N)N=C(N)N1c1ccc(-c2ccc3c(Cl)cc(Cl)cc3c2)cc1 | - | DHFR | Pneumocystis carinii | - | - | - | IC50 | 0.84 µM
CN(C)CCOc1ccccc1/C=N\N1CCN(C2Cc3ccccc3Sc3ccc(Cl)cc32)CC1 | - | Farnesyl-protein transferase | Candida albicans | - | - | - | IC50 | >100 µM
CCCCc1ccc(Cc2nc3nc(N)nc(N)c3nc2Cc2ccc(CCCC)cc2)cc1 | - | DHFR | Pneumocystis carinii | - | - | - | IC50 | 3.9 µM
Nc1ncnc2c1ncn2[C@H]1CC[C@@H](CO)O1 | - | Thymidylate synthetase | Varicella zoster virus | - | - | Kanno-Kohmura (TK-) | IC50 | >100 µM
CCOc1ccc2ccccc2c1C(=O)Nc1nnc(NCc2cccc3ccccc23)s1 | - | Polymerase | Human cytomegalovirus | - | - | - | IC50 | <25 µM
COc1cc(-c2cncc(N3CCN(c4cccc5[nH]ccc45)CC3)n2)cc(OC)c1OC | - | UL97 kinase | Cytomegalovirus | - | - | - | IC50 | <100 µM
Cc1[nH]nc2c1C(c1cc(C#N)cc(-c3ccc(C(=O)O)cc3)c1)(C(C)C)C(C#N)=C(N)O2 | absorbance | Serine hydroxymethyltransferase | Plasmodium falciparum | - | - | - | Ki | 0.32 µM
CCCC(=O)C1C(=O)N(CC(=O)N2CCCC2C(=O)O)C(=O)c2ccccc21 | - | Protease | Rhinovirus | - | - | Serotype 14 | IC50 | >100 µM
CC(=O)c1ccc(N2CCN(c3cncc(-c4ccc(C)cc4)n3)CC2)cc1 | - | UL97 kinase | Cytomegalovirus | - | - | - | IC50 | <10 µM
Nc1nc(N)c(-c2ccc(Cl)cc2)c(/C=C/c2ccc([N+](=O)[O-])cc2)n1 | - | Dihydrofolate reductase | Cryptosporidium parvum | - | - | TYPE I | IC50 | 80 µM
O=C(CCCCCl)Nc1nnc(NCCc2ccccc2)s1 | - | Polymerase | Human cytomegalovirus | - | - | - | IC50 | >25 µM
COc1ccc(C2CC(c3cc4ccccc4o3)=NN2c2ccc([N+](=O)[O-])cc2)cc1 | - | Farnesyl-protein transferase | Candida albicans | - | - | - | IC50 | 0.84 µM
O=C1c2c(O)c(=O)c(-c3nccs3)cn2CCN1Cc1ccc(Cl)c(F)c1 | ELISA | Integrase | HIV-1 | - | - | - | IC50 | <0.01 µM
CC1(C)O[C@@H]2O[C@H]3C(C4N[C@@H](c5ccccc5)[C@H](c5ccccc5)N4)=NO[C@H]3[C@@H]2O1 | - | Beta-galactosidase | Aspergillus niger | - | - | - | IC50 | >1000 µM
CSCCCN1C(=O)c2ccccc2C(CC(=O)c2ccccc2)C1=O | - | Protease | Rhinovirus | - | - | Serotype 14 | IC50 | >100 µM
O=c1nc[nH]c(=O)c2c1ncn2[C@H]1O[C@@H](CO)[C@H](O)[C@@H]1O | helicase activity | NTPase/helicase | West Nile virus | - | - | - | IC50 | >500 µM
Nc1ccn(C[C@@H](CO)OCP(=O)(O)O)c(=O)n1 | - | Thymidylate synthetase | Varicella zoster virus | - | - | Kanno-Kohmura (TK-) | IC50 | >100 µM
O=C(O[C@@H]1O[C@@H]2COC(=O)c3cc4c(O)c(O)c3-c3c(cc(O)c(O)c3O)C(=O)O[C@H]2[C@H](OC(=O)c2cc(O)c(O)c(O)c2)[C@H]1OC(=O)c1cc(O)c(O)c(O)c1Oc1cc2c(c(O)c1O)-c1c(cc(O)c(O)c1O)C(=O)OC[C@H]1OC(O)[C@H](OC(=O)c3cc(O)c(O)c(O)c3O4)[C@@H](OC(=O)c3cc(O)c(O)c(O)c3)[C@@H]1OC2=O)c1cc(O)c(O)c(O)c1 | - | DNA polymerase | Epstein-Barr virus | - | - | - | IC50 | 5.2 µg/mL
Nc1nc(N)c2nc(Cc3ccc(Cl)cc3)c(Cc3ccc(Cl)cc3)nc2n1 | - | DHFR | Toxoplasma gondii | - | - | - | IC50 | 2.5 µM
O[C@@H]1[C@@H](O)[C@@H](NCc2ccc(C(F)(F)F)cc2)[C@H]2O[C@H]2[C@H]1O | - | Amyloglucosidase | Aspergillus niger | 100 µM | - | - | inhibition | 16%
CC(C)(C)OC(=O)N[C@@H](CO)C(=O)N[C@@H](Cc1ccccc1)[C@@H](O)C(=O)NCC1CCCCC1 | - | Protease | HIV-1 | 1000 µM | - | - | inhibition | 17.1%
Nc1nc(-c2ccccc2)c(CCCNc2ccc(C(=O)NC(CCC(=O)O)C(=O)O)cc2)c(=O)[nH]1 | - | Dihydrofolate reductase | Cryptosporidium parvum | - | - | TYPE II | IC50 | >100 µM
CCN(CC)CCCC(C)NC(=O)c1ccc(-c2cc(C#N)cc(C3(C(C)C)C(C#N)=C(N)Oc4n[nH]c(C)c43)c2)s1 | absorbance | Serine hydroxymethyltransferase | Plasmodium falciparum | - | - | - | Ki | 0.349 µM
O=c1[nH]c(=O)n([C@H]2C[C@H](O)[C@@H](CO)O2)cc1/C=C/Br | - | Thymidylate synthetase | Varicella zoster virus | - | - | KANNO (TK+) | IC50 | <0.001 µM
CC(=O)NCCNc1nnc(NC(=O)c2c(C(C)C)cc(C(C)C)cc2C(C)C)s1 | - | Polymerase | Human cytomegalovirus | - | - | - | IC50 | >25 µM
COc1ccc(N2CCN(c3cncc(-c4ccc(Oc5ccccc5)cc4)n3)CC2)cc1OC | - | UL97 kinase | Cytomegalovirus | 10 µM | - | - | inhibition | >15%
CS(=O)(=O)C[C@H](NC(=O)COc1cccc2ccccc12)C(=O)N[C@@H](Cc1ccccc1)[C@H](O)C(=O)N1CSC[C@H]1C(=O)NC(CO)c1ccccc1 | - | Protease | HIV-1 | 0.05 µM | - | - | inhibition | 5.5%
CC(C)c1cc(C(C)C)c(C(=O)Nc2nnc(NCC(c3ccccc3)c3ccccc3)s2)c(C(C)C)c1 | - | Polymerase | Human cytomegalovirus | - | - | - | IC50 | >25 µM
CCCCCCC1N=C(N)N=C(N)N1c1ccc(Cl)cc1 | - | Dihydrofolate reductase | Cryptosporidium parvum | - | - | TYPE II | IC50 | 60 µM
CC(=O)c1ccc(N2CCN(c3cncc(-c4ccc(F)c(Cl)c4)n3)CC2)cc1 | - | UL97 kinase | Cytomegalovirus | 10 µM | - | - | inhibition | >15%
CS(=O)(=O)CCCN1C(=O)c2ccccc2C(CC(=O)c2ccccc2)C1=O | - | Protease | Rhinovirus | - | - | Serotype 14 | IC50 | 22.1 µM
Nc1ccn([C@@H]2CS[C@H](COP(=O)(O)OP(=O)(O)OP(=O)(O)O)O2)c(=O)n1 | radiometric | Reverse transcriptase | HIV | - | RT-Q151M K103N | - | Ki | 0.159 µM
NNC(=O)c1ccncc1 | - | Isocitrate lyase | Mycobacterium tuberculosis | - | - | H37RV (INH 10 ug/mL-R) | IC50 | >1000 µM
CO[C@H](C(=O)NO)[C@@H](CC(C)C)C(=O)N[C@H](C(=O)OC1CCCC1)c1ccccc1 | fluorescence | PfM1AAP | Plasmodium falciparum | - | - | - | Ki | 1.4 µM
CCOC(=O)CCCN(C)c1cc(C#N)cc(C2(C3CCC3)C(C#N)=C(N)Oc3n[nH]c(C)c32)c1 | absorbance | Serine hydroxymethyltransferase | Plasmodium falciparum | - | - | - | Ki | 0.561 µM
O=c1ccn2ccn(Cc3ccc(Br)cc3)c(=O)c2c1O | ELISA | Integrase | HIV-1 | - | - | - | IC50 | 0.01–0.1 µM
O[C@@H]1[C@@H](O)[C@@H](NCc2ccc(C(F)(F)F)cc2)[C@@H]2O[C@@H]2[C@H]1O | - | Beta-D-xylosidase | Aspergillus niger | - | - | - | Ki | 2.2 µM
O=C1c2c(O)c(=O)ccn2CCN1Cc1cc(Cl)cc(Cl)c1 | ELISA | Integrase | HIV-1 | - | - | - | IC50 | 0.01–0.1 µM
Nc1ncnc2c1ncn2C[C@@H](CO)OCP(=O)(O)O | - | Thymidylate synthetase | Varicella zoster virus | - | - | Kanno-Kohmura (TK-) | IC50 | >100 µM
CCOc1c(Cl)cc2nc(S(N)(=O)=O)sc2c1Cl | - | Geranylgeranyl-protein transferase I | Candida albicans | - | - | - | IC50 | 0.14 µM
N[C@@H]1[C@H](O)[C@@H](O)[C@H](O)[C@H]2O[C@@H]12 | - | Beta-D-xylosidase | Aspergillus niger | 100 µM | - | - | inhibition | 76%
CSCCCN1C(=O)c2ccccc2C(C(=O)c2ccccc2)C1=O | - | Protease | Rhinovirus | - | - | Serotype 2 | IC50 | 23.1 µM
COc1ccc(N2CCN(c3cncc(-c4ccc(C(C)C)cc4)n3)CC2)cc1OC | - | UL97 kinase | Cytomegalovirus | - | - | - | IC50 | <10 µM
COC(=O)C(CCSC)NC(=O)C1(Cc2ccccc2C)CCN(C(=O)[C@@H](N)CS)CC1 | - | Geranylgeranyl-protein transferase I | Candida albicans | - | - | - | IC50 | 0.26 µM
CC(C)(C)NC(=O)[C@@H]1CCCN1C(=O)[C@@H](O)[C@H](Cc1ccccc1)NC(=O)[C@H](CS(N)(=O)=O)NC(=O)OC(C)(C)C | - | Protease | HIV-1 | 5 µM | - | - | inhibition | 7.1%
Cc1[nH]nc2c1C(c1cc(C#N)cc(N3CCOCC3)c1)(C1CCC1)C(C#N)=C(N)O2 | absorbance | Serine hydroxymethyltransferase | Plasmodium falciparum | - | - | - | IC50 | 0.28 µM
O=c1ccn2ccn(CCCc3ccc(Cl)cc3)c(=O)c2c1O | ELISA | Integrase | HIV-1 | - | - | - | IC50 | 0.01–0.1 µM
C[C@H](Cn1cnc2c(N)ncnc21)OCP(=O)(O)O | - | Thymidylate synthetase | Varicella zoster virus | - | - | Kanno-Kohmura (TK-) | IC50 | >100 µM
O[C@@H]1[C@@H](O)[C@@H](NCc2ccccc2)[C@H]2O[C@H]2[C@H]1O | - | Amyloglucosidase | Aspergillus niger | 100 µM | - | - | inhibition | 0%

A second listing of 5 rows from above:

smiles,method,target,organism,tested at,mutations,strain or isolate,measure,result
Nc1ccn([C@@H]2CS[C@H](COP(=O)(O)OP(=O)(O)OP(=O)(O)O)O2)c(=O)n1,radiometric,Reverse transcriptase,HIV,-,RT-Q151M K103N,-,Ki,0.159 µM
CO[C@H](C(=O)NO)[C@@H](CC(C)C)C(=O)N[C@H](C(=O)OC1CCCC1)c1ccccc1,fluorescence,PfM1AAP,Plasmodium falciparum,-,-,-,Ki,1.4 µM
Nc1nc(N)c(-c2ccc(Cl)cc2)c(/C=C/c2ccc([N+](=O)[O-])cc2)n1,-,Dihydrofolate reductase,Cryptosporidium parvum,-,-,TYPE I,IC50,80 µM
CC(C)(C)OC(=O)N[C@@H](CO)C(=O)N[C@@H](Cc1ccccc1)[C@@H](O)C(=O)NCC1CCCCC1,-,Protease,HIV-1,1000 µM,-,-,inhibition,17.1%
COc1ccc(N2CCN(c3cncc(-c4ccc(Oc5ccccc5)cc4)n3)CC2)cc1OC,-,UL97 kinase,Cytomegalovirus,10 µM,-,-,inhibition,>15%